Results of unrelated studies side by side (data: NIAID ChemDB).

Shared fields: whole-cell or culture tests; species: HIV-1; measure: EC90

ECn is the concentration giving n% inhibition of infection, replication or growth. Conditions beyond the fields shown may differ between rows.

O=c1[nH]cnc2c1ncn2C1CC[C@@H](CO)O1 ; method: p24 / ELISA ; mutations: K65R ; cell line: Primary T lymphocytes ; value: 86.7 µM
Nc1ccn([C@@H]2CS[C@H](CO)O2)c(=O)n1 ; strain: NL4-3 ; method: luciferase ; cell line: Jurkat cells ; value: 7.7 µM
CCn1cc(Cc2ccccc2)c(C2CCN(C[C@H]3CN([C@@H](C(=O)O)C4CCCCC4)C[C@@H]3c3ccccc3)CC2)n1 ; strain: BaL ; method: β-galactosidase ; cell line: HeLa ; value: >0.3 µM
Cc1nnc(C(C)C)n1C1C[C@H]2CC[C@@H](C1)N2CC[C@H](NC(=O)C1CCC(F)(F)CC1)c1ccccc1 ; strain: SF162 ; method: luciferase ; cell line: ACH2 + TZM-bl ; value: 0.0128 µM
Cc1ccnc2c1NC(=O)c1cccnc1N2C1CC1 ; strain: Subtype B isolate ; method: RT activity ; cell line: PBMC ; value: 0.22 µM
COc1ccc(-c2c3c(cc4cc(OC)c(OC)cc24)CN(C(C)C)C3)cc1OC ; strain: CONB/pNL43E-Luc+ ; method: luciferase ; cell line: U87 (CD4+ CCR5+) + U87 ; value: 15.43 µg/mL
Cc1c(O)cccc1C(=O)N[C@@H](CSc1ccccc1)[C@H](O)CN1C[C@H]2CCCC[C@H]2C[C@H]1C(=O)NC(C)(C)C ; strain: HXB2 ; method: p24 ; mutations: PR-M46I I47V I50V ; cell line: PBMC ; value: 0.035 µM
CC(C)c1c(COC(N)=O)cn(Cc2ccncc2)c1Sc1ccccc1 ; strain: IIIB ; method: cytopathic effect / MTT ; cell line: MT-4 ; value: 5 µM
CC(C)[C@H](NC(=O)N(C)Cc1ccccn1)C(=O)N[C@@H](Cc1ccccc1)[C@@H](O)[C@H](O)[C@H](Cc1ccccc1)NC(=O)[C@@H](NC(=O)N(C)Cc1ccccn1)C(C)C ; strain: IIIB ; method: cytopathic effect / trypan blue ; cell line: ATH8 ; value: 8.5 µM
COc1ccc(-c2c3c(cc4cc(OC)c(OC)cc24)CN(CC(C)C)C3)cc1OC ; strain: CONB/pNL43E-Luc+ ; method: luciferase ; cell line: U87 (CD4+ CCR5+) + U87 ; value: 2.76 µg/mL
Nc1nc(=O)n([C@@H]2CS[C@H](CO)O2)cc1F ; strain: LAI ; method: p24 / ELISA ; cell line: Primary T lymphocytes ; value: 0.8 µM
CCn1nc(Cc2cccc(OC)c2)cc1C1CCN(C[C@H]2CN([C@@H](C(=O)O)C(C)(C)C)C[C@@H]2c2cccc(F)c2)CC1 ; strain: BaL ; method: β-galactosidase ; conditions: 50% human serum ; cell line: HeLa ; value: 0.033 µM
N#Cc1ccc(-c2cc(C3CCN(C[C@H]4CN([C@@H](C(=O)O)C5CCCCC5)C[C@@H]4c4ccccc4)CC3)[nH]n2)cc1 ; strain: BaL ; method: β-galactosidase ; cell line: HeLa ; value: >0.3 µM
Nc1nc(NC2CC2)c2ncn([C@H]3C=C[C@@H](CO)C3)c2n1 ; strain: NL4-3 ; method: luciferase ; cell line: Jurkat cells ; value: 123 µM
CC(C)c1c(CO)cn(Cc2ccncc2)c1Sc1ccccc1 ; method: cytopathic effect / MTT ; mutations: RT-K103N ; value: 9.6 µM
CCCOc1ccc(Cc2cc(C3CCN(C[C@H]4CN([C@@H](C(=O)O)[C@H](C)CC)C[C@@H]4c4cccc(F)c4)CC3)n(CC)n2)cc1 ; strain: BaL ; method: β-galactosidase ; conditions: 50% human serum ; cell line: HeLa ; value: 0.3 µM
O=C(O)[C@@H](C1CCCCC1)N1C[C@H](CN2CCC(c3cc(-c4ccc(Cl)cc4)n[nH]3)CC2)[C@@H](c2cccc(F)c2)C1 ; strain: BaL ; method: β-galactosidase ; cell line: HeLa ; value: >0.3 µM
CCOc1ccc(Cc2cc(C3CCN(C[C@H]4CN([C@@H](C(=O)O)C(C)C)C[C@@H]4c4cccc(F)c4)CC3)n(CC)n2)cc1F ; strain: BaL ; method: β-galactosidase ; conditions: 50% human serum ; cell line: HeLa ; value: 0.1 µM
O=C1N(Cc2ccc(CO)cc2)[C@H](Cc2ccccc2)[C@H](O)[C@@H](O)[C@@H](Cc2ccccc2)N1Cc1ccc(CO)cc1 ; strain: RF ; method: hybridisation ; cell line: MT-2 ; value: 0.057 µM
CC(C)(C)NC(=O)[C@@H]1C[C@@H]2CCCC[C@@H]2CN1C[C@@H](O)[C@H](Cc1ccccc1)NC(=O)[C@H](CC(N)=O)NC(=O)c1ccc2ccccc2n1 ; strain: Group O isolate ; method: RT activity ; cell line: PBMC ; value: 0.026 µM
CC[C@H](C)[C@H](NC(=O)Cc1ccccn1)C(=O)N[C@@H](Cc1ccccc1)[C@@H](O)[C@H](O)[C@H](Cc1ccccc1)NC(=O)[C@@H](NC(=O)Cc1ccccn1)[C@@H](C)CC ; strain: RF ; method: plaque count / virus yield ; cell line: MT-2 ; value: 0.38 µg/mL
CC(C)(C)NC(=O)[C@@H]1C[C@@H]2CCCC[C@@H]2CN1C[C@@H](O)[C@H](Cc1ccccc1)NC(=O)[C@H](CC(N)=O)NC(=O)c1ccc2ccccc2n1 ; strain: NL4-3 ; method: p24 ; mutations: PR-D30N N88D ; cell line: MT-4 ; value: 0.01 µM
O=C(O)[C@@H](C1CCCCC1)N1C[C@H](CN2CCC(c3cc(-c4cccc5ccccc45)n[nH]3)CC2)[C@@H](c2ccccc2)C1 ; strain: BaL ; method: β-galactosidase ; cell line: HeLa ; value: >0.3 µM
N#CC[C@H](C1CCCC1)n1cc(-c2ncnc3[nH]ccc23)cn1 ; method: p24 / ELISA ; mutations: L74V ; cell line: Primary T lymphocytes ; value: 3.2 µM
CC[C@@H](C)[C@H](C(=O)O)N1C[C@H](CN2CCC(c3cc(Cc4ccc(C(F)(F)F)cc4)nn3CC)CC2)[C@@H](c2cccc(F)c2)C1 ; strain: BaL ; method: β-galactosidase ; cell line: HeLa ; value: 0.0004 µM
O=C(O)[C@@H](C1CCCCC1)N1C[C@H](CN2CCC(c3cc(-c4ccc(Cl)cc4Cl)n[nH]3)CC2)[C@@H](c2cccc(F)c2)C1 ; strain: BaL ; method: β-galactosidase ; cell line: HeLa ; value: >0.3 µM
Cc1cn([C@H]2C[C@H](N=[N+]=[N-])[C@@H](CO)O2)c(=O)[nH]c1=O ; strain: SF162 ; method: luciferase ; cell line: ACH2 + TZM-bl ; value: 0.00805 µM
CC(C)=CCN1Cc2cc(Cl)cc3[nH]c(=S)n(c23)C[C@@H]1C ; strain: MF ; method: antigen ; cell line: MT-4 ; value: 0.19 µM
CC(C)CN(C[C@@H](O)[C@H](Cc1ccccc1)NC(=O)[C@@H](NC(=O)CNCc1cccc(F)c1)C(C)(C)C)S(=O)(=O)c1cccc(N)c1 ; strain: IIIB ; method: virus yield ; cell line: PBMC ; value: 0.012 µM

A second listing of 4 rows from above:

{"smiles": "Cc1cn([C@H]2C[C@H](N=[N+]=[N-])[C@@H](CO)O2)c(=O)[nH]c1=O", "strain": "SF162", "method": "luciferase", "cell line": "ACH2 + TZM-bl", "value": "0.00805 µM"}
{"smiles": "Cc1ccnc2c1NC(=O)c1cccnc1N2C1CC1", "strain": "Subtype B isolate", "method": "RT activity", "cell line": "PBMC", "value": "0.22 µM"}
{"smiles": "O=C1N(Cc2ccc(CO)cc2)[C@H](Cc2ccccc2)[C@H](O)[C@@H](O)[C@@H](Cc2ccccc2)N1Cc1ccc(CO)cc1", "strain": "RF", "method": "hybridisation", "cell line": "MT-2", "value": "0.057 µM"}
{"smiles": "N#CC[C@H](C1CCCC1)n1cc(-c2ncnc3[nH]ccc23)cn1", "method": "p24 / ELISA", "mutations": "L74V", "cell line": "Primary T lymphocytes", "value": "3.2 µM"}